Pooled drug test results. Numbers come from NIAID ChemDB, via PubChem.

Common to all: growth or infection tests; agent: Candida albicans; method: broth dilution; measure: MIC

Lines come from different laboratories, so protocols vary. Blank or dashed fields: not listed here.

| compound | strain or isolate | conditions | value |
|---|---|---|---|
| Cc1ccc(N2C(=O)CS/C2=N/NC(=O)c2cn3ccccc3n2)cc1 | ATCC 10231 |  | 32 µg/mL |
| COc1cc(/C=N/c2c(C(=O)N/N=C/c3cc4ccccc4nc3Cl)sc(=S)n2-c2ccccc2)cc(OC)c1OC | MTCC 227 |  | >1000 µg/mL |
| c1ccc(Nc2nnc(-c3cn4ccccc4n3)o2)cc1 | ATCC 10231 |  | 32 µg/mL |
| NC(=NNS(=O)(=O)c1ccccc1)c1cnccn1 |  |  | >256 µg/mL |
| Nn1c(SCC(O)(Cn2cncn2)c2ccc(Cl)cc2Cl)nnc1-c1ccccc1 | IRFC 192 |  | >64 µg/mL |
| COc1ccc(-c2cc(=O)c3c(O)c([C@@H]4O[C@H](CO)[C@@H](O)[C@H](O)[C@H]4O)c(O)cc3o2)cc1O | ATCC 18804 |  | 125 µg/mL |
| c1ccc(-[n+]2cnc(-c3cnccn3)[nH]2)cc1 |  |  | >256 µg/mL |
| CCC(C)CC(C)CCCCCCCCC(=O)N[C@H]1C[C@@H](O)[C@H](NCCN)NC(=O)[C@@H]2[C@@H](O)CCN2C(=O)[C@H]([C@H](O)CCN)NC(=O)[C@H]([C@H](O)[C@@H](O)c2ccc(O)cc2)NC(=O)[C@@H]2C[C@@H](O)CN2C(=O)[C@H]([C@@H](C)O)NC1=O | 10920 |  | 0.015 µg/mL |
| COc1cncc(-c2nc[n+](C)[nH]2)n1 |  |  | >256 µg/mL |
| CNC1(NC)C=CC(C2SCC(=O)N2c2ncc(-c3cc4ccccc4oc3=O)o2)=CC1 | ATCC 10231 |  | 20 µg/mL |
| COc1ccc(/C=N/c2c(C(=O)N/N=C/c3cc4ccccc4nc3Cl)sc(=S)n2-c2ccccc2)cc1 | MTCC 227 |  | >1000 µg/mL |
| CCCCCCCCCC(=O)[C@@H](C)C(=O)N[C@@H](CC(C)C)C(=O)N[C@H](C)C(=O)N1CCC[C@H]1C(=O)N[C@H](C(=O)N[C@H]1CSCCNC1=O)[C@@H](C)CC | Day185 |  | >200 µM |
| COc1ccc(/C=N/c2c(C(=O)N/N=C/c3cc4ccccc4nc3Cl)sc(=S)n2-c2ccccc2)cc1OC | MTCC 227 |  | >1000 µg/mL |
| CCCC1=CC2=C(CO1)C(=O)[C@](C)(OC(=O)c1c(C)cc(O)cc1OC)[C@H](O)C2 |  |  | >256 µg/mL |
| Nn1c(SCC(O)(Cn2cncn2)c2ccc(Cl)cc2Cl)nnc1-c1ccncc1 | IRFC 37 |  | >64 µg/mL |
| O/N=C(/COc1cccc(F)c1)c1ccccc1 | ATCC 10231 | 48 h | >125 µg/mL |
| Cc1nc(-c2cncc(Cl)n2)[nH][n+]1-c1ccccc1 |  |  | >256 µg/mL |
| Nn1c(SCC(O)(Cn2cncn2)c2ccc(F)cc2F)nnc1-c1ccncc1 | IRFC 37 |  | >64 µg/mL |
| C[C@H]1[C@H](O)[C@@H](C)/C=C/C=C/C=C/C=C/C=C/C=C/C=C/[C@H](O[C@@H]2O[C@H](C)[C@@H](O)[C@H](N)[C@@H]2O)C[C@@H]2O[C@](O)(C[C@@H](O)C[C@@H](O)CC[C@H](O)[C@@H](O)C[C@@H](O)CC(=O)O[C@H]1C)C[C@H](O)[C@H]2C(=O)O | ATCC 90028 |  | 0.5 µM |
| Cc1ccc(C2SCC(=O)N2c2ncc(-c3cc4ccccc4oc3=O)o2)cc1 | ATCC 10231 |  | 25 µg/mL |
| CCNC(=S)NNC(=O)c1cn2ccccc2n1 | ATCC 10231 |  | 64 µg/mL |
| c1ccc(-c2nc(-c3cnccn3)[nH][n+]2-c2ccccc2)cc1 |  |  | 128 µg/mL |
| O=C(COc1ccccc1)c1ccccc1 | ATCC 10231 | 24 h | 125 µg/mL |
| C[C@H]1[C@H](O)[C@@H](C)/C=C/C=C/C=C/C=C/C=C/C=C/C=C/[C@H](O[C@@H]2O[C@H](C)[C@@H](O)[C@H](N)[C@@H]2O)C[C@@H]2O[C@](O)(C[C@@H](O)C[C@@H](O)CC[C@H](O)[C@@H](O)C[C@@H](O)CC(=O)O[C@H]1C)C[C@H](O)[C@H]2C(=O)O | ATCC 90028 | 48 h | 1 µg/mL |
| O=C1CSC(c2c(F)cccc2F)N1c1ncc(-c2cc3ccccc3oc2=O)o1 | ATCC 10231 |  | 30 µg/mL |
| CCCC1=CC2=C(CO1)C(=O)[C@](C)(O)[C@H](OC(=O)c1c(C)cc(O)c(O)c1OC)C2 |  |  | >256 µg/mL |
| Brc1ccc(Nc2nnc(-c3cn4ccccc4n3)o2)cc1 | ATCC 10231 |  | 32 µg/mL |
| O/N=C(/COc1cccc(Cl)c1)c1ccccc1 | ATCC 10231 | 48 h | >125 µg/mL |
| NN=C(N)c1cnccn1 |  |  | 256 µg/mL |
| O=C(NNC(=S)Nc1ccc(Cl)cc1)c1cn2ccccc2n1 | ATCC 10231 |  | 32 µg/mL |
| Nn1c(SCC(O)(Cn2cncn2)c2ccc(F)cc2F)nnc1-c1ccccc1 | IRFC 36 |  | >64 µg/mL |
| Cc1ccc(NC(=S)NNC(=O)c2cn3ccccc3n2)cc1 | ATCC 10231 |  | 64 µg/mL |
| COc1cc(OCC(=O)c2ccccc2)cc(OC)c1OC | ATCC 10231 | 48 h | >125 µg/mL |
| C/C=C/C1=CC2=C(CO1)C(=O)[C@](C)(OC(=O)c1c(C)cc(O)c(O)c1OC)[C@H](O)C2 |  |  | >256 µg/mL |
| O=C1CSC(c2ccco2)N1c1ncc(-c2cc3ccccc3oc2=O)o1 | ATCC 10231 |  | 32 µg/mL |
| CCCCCCCCCCCCCCCC(=O)NCCCN | ATCC 18804 |  | 4 µg/mL |
| CCCCCCCCCC(=O)C(C)C(=O)N[C@@H](CC(C)C)C(=O)N[C@H](C)C(=O)N1CCC[C@H]1C(=O)N[C@H](C(=O)N[C@@H](CC)C(=O)NCCO)C(C)C | Day185 |  | >200 µM |
| O=C(NNC(=S)Nc1ccccc1)c1cn2ccccc2n1 | ATCC 10231 |  | 32 µg/mL |
| Cc1nc(-c2cnccn2)[nH][n+]1-c1ccccc1 |  |  | >256 µg/mL |
| C[C@@H](c1ncncc1F)[C@](O)(Cn1cncn1)c1ccc(F)cc1F | W1016 |  | 4 µg/mL |
| O=C1CSC(c2cccc([N+](=O)[O-])c2)N1c1ncc(-c2cc3ccccc3oc2=O)o1 | ATCC 10231 |  | 20 µg/mL |
| Nc1scc2c1c(=O)oc1ccccc12 | ATCC 2091 |  | 128 µg/mL |
| O=C(N/N=C/c1cc2ccccc2nc1Cl)c1sc(=S)n(-c2ccccc2)c1/N=C/c1ccccc1O | MTCC 227 |  | 250 µg/mL |
| Clc1ccc(Nc2nnc(-c3cn4ccccc4n3)o2)cc1 | ATCC 10231 |  | 32 µg/mL |
| Cc1ccc(/C=N/c2c(C(=O)N/N=C/c3cc4ccccc4nc3Cl)sc(=S)n2-c2ccccc2)cc1 | MTCC 227 |  | >1000 µg/mL |
| O=C(COc1cccc(Cl)c1)c1ccccc1 | ATCC 10231 | 48 h | >125 µg/mL |
| COc1cc(/C=N/c2c(C(=O)N/N=C/c3cc4ccccc4nc3Cl)sc(=S)n2-c2ccccc2)ccc1O | MTCC 227 |  | >1000 µg/mL |
| CN(N=C(N)c1cnccn1)S(C)(=O)=O |  |  | >256 µg/mL |

Repeating the first 3 entries:

Cc1ccc(N2C(=O)CS/C2=N/NC(=O)c2cn3ccccc3n2)cc1 ; strain or isolate: ATCC 10231 ; value: 32 µg/mL
COc1cc(/C=N/c2c(C(=O)N/N=C/c3cc4ccccc4nc3Cl)sc(=S)n2-c2ccccc2)cc(OC)c1OC ; strain or isolate: MTCC 227 ; value: >1000 µg/mL
c1ccc(Nc2nnc(-c3cn4ccccc4n3)o2)cc1 ; strain or isolate: ATCC 10231 ; value: 32 µg/mL